Assay results: the supplement of paper PMC9931576
Human monoclonal antibodies against the spike receptor-binding domain (heavy:light variable regions). IC50 against pseudoviruses bearing the spike of naturally observed variants; lower = stronger; >10 µg/ml means not reached at the top dose. No active / inactive call. The stated detection limit is 0.0005 µg/ml; values near or below 0.001 µg/ml lie at the floor of the assay.

Legend:
Test in all cases: pseudovirus neutralization IC50; higher = weaker neutralization
[1] = biological target: SARS-CoV-2 Omicron BA.1 spike pseudovirus
Experimental: (§1)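 Single-round VSV luciferase pseudovirus mixed with antibody dilutions for 1 h and put on Huh-7 cells for about a day; IC50 from the dose curve.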

[2] = biological target: SARS-CoV-2 Omicron BA.2 spike pseudovirus
Experimental: as §1

[3] = biological target: SARS-CoV-2 Omicron BA.2.75 spike pseudovirus
Experimental: as §1

[4] = biological target: SARS-CoV-2 Omicron BA.2.75.2 spike pseudovirus
Experimental: as §1

[5] = biological target: SARS-CoV-2 Omicron BA.5 spike pseudovirus
Experimental: as §1

[6] = biological target: SARS-CoV-2 Omicron BM.1.1.1 spike pseudovirus
Experimental: as §1

[7] = biological target: SARS-CoV-2 Omicron BQ.1.1 spike pseudovirus
Experimental: as §1

[8] = biological target: SARS-CoV-2 Omicron BR.2 spike pseudovirus
Experimental: as §1

[9] = biological target: SARS-CoV-2 Omicron CA.1 spike pseudovirus
Experimental: as §1

[10] = biological target: SARS-CoV-2 Omicron XBB spike pseudovirus
Experimental: as §1

[11] = biological target: SARS-CoV-2 early D614G spike pseudovirus
Experimental: as §1

Measured: pseudovirus neutralization IC50

B1: BD58-0529 (protein)
chain 1: QVQLMQSGTEVKKPGASVKVSCKASGYPFTSYGISWVRQAPGQGLEWMGWISPYYGDAKYAEKLQGRATLTTDTSTSTAYMEMTSLTSDDTAVYYCAREGSYYGSGRQNFRDKRRLYYYGMDVWGQGTTVTVSS
chain 2: DIQMTQSPPSLSASVGDRVTITCRASQSISSWLAWYQQKPGKAPKLLIYMASNLESGVPSRFSGGGSGTEFTLTISSLQPDDFATYYCQQYHNSVTFGQGTKVEIK
> 10 µg/mL: all assays above

B2: BD58-0553 (protein)
chain 1: QVQLVESGGGVVQPGRSLRLSCAASGLSFSTYAMHWVRQAPGKGLEWVAAISYDGSKKYYADSVKGRFTISRDNSKNTLYLQMNSLRAEETAMYYCASHGCTSATCRRVSNWGSIDYWGQGTLVTVSS
chain 2: QSVLSQAPSASGTPGQGVTISCSGSSSNIGNNYVYWYQQLPGTAPRLLIYRNNQRPSGVPDRFSGSKSGTSASLAISGLRSEDEADYYCATWDDSLSGRVFGGGTKLTVL
> 10 µg/mL: all assays above

B3: BD58-0556 (protein)
chain 1: QVQLVESGGGVVQPGRSLRLSCAASGLSFSTYAMHWVRQAPGKGLEWVAAISYDGSKKYYADSVKGRFTISRDNSKNTLYLQMNSLRAEETAMYYCASHGCSSATCRRVSNWGSIDYWGQGTLVTVSS
chain 2: QSVLSQAPSASGTPGQGVTISCSGSSSNIGNNYVYWYQQLPGTAPRLLIYRNNQRPSGVPDRFSGSKSGTSASLAISGLRSEDEADYYCATWDDSLSGRVFGGGTKLTVL
> 10 µg/mL: all assays above

B4: BD58-0567 (protein)
chain 1: EVQLLESGGGLVQPGGSLSLSCSASGFTFSSYAMGWVRQAPGKGLEWVSGITDTGSGAYYADSMKGRFTVSRDNPGNTVYLQLNSLRDDDTATYYCVRYTSSWFPIGSFADWGRGTLVAVSS
chain 2: QSALTQPASVSGSPGQSITISCTGTSDDIGNYYYVSWYQQHPGKAPKLMIYDVSNRPSGVSNRFFGSKSGNTASLTIFGLQADDEADYYCSSYTTSSTWVFGGGTKLTVL
> 10 µg/mL: all assays above

B5: BD56-1380 (protein)
chain 1: QVHLIQSGTEVKRPGASVKVSCKVSGYSLSELSMHWVRQAPGKGLEWMGGFDLRDGETIYAQKFQGRVTMSEDTSTDTAYMELRSLRSEDTAVYYCTTGGSDSFDPWGQGTLVTVSS
chain 2: DIQLTQSPSFLSASVGDRVTITCRASQGISSYLAWYQQKPGKAPKLLIYTASTLESGVPSRFSGSGSGTEFTLTISSLQPEDFATYFCQHLNNFPFTFGPGTTVDIK
> 10 µg/mL: all assays above
